Human monoclonal antibodies against the spike receptor-binding domain (heavy:light variable regions). IC50 against pseudoviruses bearing the spike of naturally observed variants; lower = stronger; >10 µg/ml means not reached at the top dose. No active / inactive call. The stated detection limit is 0.0005 µg/ml; values near or below 0.001 µg/ml lie at the floor of the assay.
Assays:
Test in all cases: pseudovirus neutralization IC50; higher = weaker neutralization
[1] = biological target: SARS-CoV-2 Omicron BA.1 spike pseudovirus
Experimental: (§1)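 Single-round VSV luciferase pseudovirus mixed with antibody dilutions for 1 h and put on Huh-7 cells for about a day; IC50 from the dose curve.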

[2] = biological target: SARS-CoV-2 Omicron BA.2 spike pseudovirus
Experimental: as §1

[3] = biological target: SARS-CoV-2 Omicron BA.2.75 spike pseudovirus
Experimental: as §1

[4] = biological target: SARS-CoV-2 Omicron BA.5 spike pseudovirus
Experimental: as §1

[5] = biological target: SARS-CoV-2 Omicron BQ.1.1 spike pseudovirus
Experimental: as §1

[6] = biological target: SARS-CoV-2 Omicron XBB spike pseudovirus
Experimental: as §1

[7] = biological target: SARS-CoV-2 early D614G spike pseudovirus
Experimental: as §1

Row | Binder | pseudovirus neutralization IC50 [1] [mg/L] | pseudovirus neutralization IC50 [2] [mg/L] | pseudovirus neutralization IC50 [3] [mg/L] | pseudovirus neutralization IC50 [4] [mg/L] | pseudovirus neutralization IC50 [5] [mg/L] | pseudovirus neutralization IC50 [6] [mg/L] | pseudovirus neutralization IC50 [7] [mg/L]
1 | BD55-1763 (protein) chain 1: QVQLVQSGAEVKKPGSSVKVSCKASGGTFSSDAISWVRQVPGQGPEWMARSIPLFGLANNAQKFQGRITITADKSANIAYTELSSLRSEDTAVYYCAREGITAAGPALDSWGQGTLVTVSS chain 2: DIQMTQSPSSLSASVGDRVTISCRASQSISTYLNWYQQKPGKAPKLLIYGASSLQSGVPSRFSGSGSGTDFTLTISSLQLEDFATYYCQQSYKTPPWTFGQGTKVEIK | > 10 | > 10 | > 10 | > 10 | > 10 | > 10 | 0.0299
2 | BD-807 (protein) chain 1: EVQLVESGGGLIQPGGSLRLSCAASGLIVSSNYMNWVRQAPGKGLEWVSTLYSGGSTFYTDSVKGRFTISRDNSKNTLYLQMNSLRAEDTAVYYCARDLGPFGMDVWGQGTSVTVSS chain 2: DIQLTQSPSFLSASVGDRVTITCRASQGISNYLAWYQQKPGEAPKLLIYGASTLQSGVPSRFSGSGSGTEFTLTISSLQPEDFAIYYCQQLNSYHPWTFGHGTKVEIK | > 10 | > 10 | > 10 | > 10 | > 10 | > 10 | 0.013
3 | BD55-1779 (protein) chain 1: EVQLLESGGGLIQPGGSLRLSCAASGFTFSSSAMSWVRQAPGKGLEWVSVIYDGESSIYYADSVKGRFTISRDNSKNTLDLQMNSLRVEDTALYYCAKRGIFCSGGSCSSVPFDAWGQGTLVTVSS chain 2: DIVMTQTPLSLSVTPGQPASISCKSSQSLLHSDGRTYLYWYLQRPGQSPQLLMYEVSNRFSGVPPRFSGSGSGTDFTLKISRVEAEDVGVYYCMQSVHLFTFGPGTKVDIK | 0.61 | 0.0728 | 0.372 | > 10 | > 10 | > 10 | 0.00215
4 | BD55-1789 (protein) chain 1: EVRLVESGGGLVQPGGSLRLSCSASGFTFSSYAMHWVRQAPGKGLEYVSRITDNGVYTYYADSVKGRFNISRDNSKNTLYLQMSSLRPEDTALYYCVKEGRYDFRSGYFEIDPWGQGTLVTVPS chain 2: NFMLTQPHSVSESPGKTVTISCTRNGGSIASNYVHWYQQRPGSSPRTMIYEDNQRPSGVPDRFSGSIDISSNSASLTISGLKTEDEADYYCQSFDNNNHWVFGGGTKLTVL | > 10 | > 10 | > 10 | > 10 | > 10 | > 10 | 0.249
5 | BD-815 (protein) chain 1: EVQLVQSGPEVKKPGESLKISCKASGYSFISNWIGWVRQMPGKGLEWMGIIYPGDSDTRYSPSFQGQVTISADRSITTAYLQWSSLKASDTAIYYCARLGSSWYWVDYWGQGTLVTVSS chain 2: SSELTQDPAVSVALGQTVRITCQGDSLRSYHASWYQQKPGQAPILVIYDKNNRPSGIPDRFSGSGSGNTASLTITGAQAEDEADYYCNSRDSSGDHLVFGTGTKVTVL | 0.838 | 2.09 | 3.49 | 2.73 | 1.95 | 2.06 | 0.26
6 | BD-819 (protein) chain 1: QVQLQESGPGLVRPSQTLSLTCTVSGGSISSAGSHWTWIRQRPGKGLEWIGFIYYSGGTSYNPSLRSRLTISVDTSKNQFSLNLRSVTAADTAVYYCASSTSLTGWIDPWGQGTLVTVSS chain 2: SYVLTQPPSVSVAPGKTARITCGGNDIGSKNVHWYQQKPGQAPVLVVFDDSDRPSGIPERFSGSNSGNTATLTISRVEAGDEGDYYCQVWDSNIDQYWVFGGGTKVTVL | > 10 | > 10 | > 10 | > 10 | > 10 | > 10 | 4.18

Reference: the supplement of paper PMC9931576
